The test system of this test is 8H5 mAb. Put plainly: Mimotope ELISA (HBc-V-1b coated), binding specificity with monoclonal antibodies. Particulars: HBc-V-1b fusion protein coated at 5 µg/ml; tested with 8H5, other H5 mAbs, anti-HEV, anti-HCV and anti-HBV core mAbs.

Consider `CC[C@H](C)[C@H](NC(=O)[C@@H](NC(=O)[C@H](CC(C)C)NC(=O)[C@@H]1CCCN1C(=O)[C@@H](NC(=O)[C@@H](N)CCC(=O)O)[C@@H](C)O)[C@@H](C)O)C(=O)N[C@@H](C)C(=O)NCC(=O)N[C@@H](CC(C)C)C(=O)N[C@@H](CCCCN)C(=O)N[C@@H](CC(C)C)C(=O)N[C@@H](CCCCN)C(=O)O` [V-1b], for which the “antigenic specificity of the ELISA produced with V-1b fused to HBcAg” value was “exclusively specific for 8H5”.
